Tested on: YhaJ
Experiment: EMSA
Conditions: YhaJ 0-1 uM, outcompeted by 100-fold unlabeled P1, EMSA: Roche DIG Gel Shift Kit 2nd Gen (buffer, salt and pH not stated), 30 min at 30 C, DIG probe diluted to 0.4 ng/ul, 6% DNA retardation gel, recombinant protein, residues 1-298, protein details: N-terminal 6xHis (pET-28b), label: DIG (ddUTP-11-DIG), probe letters rebuilt from the primers and the genome

“CAAACAACCACCTTAAAATGTTATTATTCTCTTTTTTCTAATGTGTAAAATACATTATCATTAAATGTCAACAAAAAAATCATATATTTTTAAAATCCATTTAAAATCAATGATATAGAAGAAAATCATCTCGTTAACAAACGACTTTAATAATTGCATTTCCATTTAGTTAAGCGTTTCTCTTTATAAGATAGATCTCATTGCATAAACAAATAAAACAGAATAAAAACCAAGCTGAACCGTTTCACTATACTCTACTTAATTCGAGTTACAGGAAGGCGGCAAGCGAGTGAATCCCCAGGAGCTTACAT (double strand) [LEE1 P1 promoter probe]”: binds.

Reference: article PMC4699771
